One assay concerns the target His6-SUMO-NOT7 (human, UniProt Q9UIV1 1-285). Description: ITC. In general terms: Isothermal titration calorimetry measures the heat released or taken up as one component is titrated into another.
A further assay has as its target His6-SUMO-NOT8 (human, UniProt Q9UFF9 1-292). Put plainly: ITC.

In publication PMC12255788, “Intracellular pathogen effector reprograms host gene expression by inhibiting mRNA decay” (Nature Communications, 2025) one finds Kd data, which are given here for one molecule.

What is called Kd is the equilibrium constant for the complex coming apart. A low value points to a tighter complex.

B1: His6-PieF (natural protein)
chain: MKRLIICNGNKLTVCTQAISSGGIVEKYTPIFSLTKESDNELTLELSGVARGYYIIPSELTSSQARAAHLITLLTRAEESQTTDMHKILNSFVSGKITSGSMFNFENDGSFKREPEEAYNLINKI
On to B1, for which the Kd with His6-SUMO-NOT7 and with His6-SUMO-NOT8 was around 24 nM throughout.
